A mixed list of measured activities; the numbers were collected in NIAID ChemDB.

Lines come from different laboratories, so protocols vary. ICn is the concentration giving n% inhibition. Blank or dashed fields: not listed here. Percent inhibition refers to the dose given; in toxicity tests it is the harm to the cells. ECn is the concentration giving n% inhibition of infection, replication or growth.

structure	protein	dose	cells	species	test	endpoint	strain	value
O=C(Nc1ccc(C[C@H](NC(=O)c2ccc3c(c2)nc(-c2ccoc2)n3C2CCCCC2)C(=O)O)cc1)c1ccccc1	RNA-dependent RNA polymerase			Poliovirus	target	IC50		>25 µM
N=c1c2ncn([C@@H]3O[C@H](CO)[C@@H](O)[C@H]3O)c2ncn1OCc1cc(F)cc(F)c1			LLC-MK2	Monkeypox virus	culture	EC50		>100 µg/mL
O=C(N[C@H](C(=O)O)c1c[nH]c2ccc(O)cc12)c1ccc2c(c1)nc(-c1ccccc1OCCO)n2C1CCCCC1	RNA-dependent RNA polymerase			Poliovirus	target	IC50		>25 µM
Nc1ccn([C@@H]2C=C(CO)[C@@H](O)[C@H]2O)c(=O)n1			VERO	Monkeypox virus	culture	EC50	MPX	<0.05 µg/mL
Nc1ccn(C[C@@H](CO)OCP(=O)(O)O)c(=O)n1			LLC-MK2	Monkeypox virus	culture	EC50		3.7 µg/mL
Clc1ccc(C2COc3ccc(Cl)cc3C2)cc1		10 µM	HEP-2	Poliovirus	culture	inhibition	IB (TYPE 2)	0%
Cn1ccnc1-c1nc2cc(C(=O)N[C@@H](Cc3c[nH]c4ccc(O)cc34)C(=O)O)ccc2n1C1CCCCC1	RNA-dependent RNA polymerase			Poliovirus	target	IC50		>25 µM
CCCCCCCCCCCCC/C=C/[C@@H](O)[C@H](CO[C@@H]1O[C@H](CO)[C@H](O)[C@H](OS(=O)(=O)O)[C@H]1O)NC(=O)CCCCCCCCCCCCCCCCCCCCCCC	Sialidase	200 µM		Influenza A virus	target	inhibition	H3N8 A/equine/Fontainebleau/79	97.1%
Cn1cc(NC(=O)c2cc(NC(=O)c3cc([N+](=O)[O-])cn3C)cn2C)cc1C(=O)NCCC(=N)N		50 µg/mL	BSC-1	Vaccinia virus	culture	inhibition	Noguchi	0%
c1ccc(C2COc3ccccc3C2)cc1		10 µM	HEP-2	Poliovirus	culture	inhibition	II (TYPE 2)	36%
O=c1[nH]cnc2c1ncn2[C@@H]1C=C(CO)[C@@H](O)[C@H]1O			MK2	Variola virus	culture	EC50	BSH	>100 µg/mL
O=C(N[C@@H](Cc1c[nH]c2ccc(O)cc12)C(=O)O)c1ccc2c(c1)nc(-c1ccoc1)n2[C@@H]1CCCC[C@H]1OCc1ccccc1	RNA-dependent RNA polymerase			Poliovirus	target	IC50		>25 µM
Nc1ccn(C[C@H]2COP(=O)(O)CO2)c(=O)n1			VERO	Variola virus	culture	EC50	Isolate Iran 2602	7 µg/mL
COc1ccc(C(NC(=O)c2ccc3c(c2)nc(-c2ccc(OCC(=O)NCCCN(C)C)cc2)n3C2CCCCC2)C(=O)O)cc1OC	RNA-dependent RNA polymerase			Poliovirus	target	IC50		>25 µM
Cn1cc(NC(=O)c2cc(NC(=O)c3cc(NC=O)cn3C)cn2C)cc1C(=O)NCCC(=N)N		200 µg/mL	BSC-1	Vaccinia virus	culture	inhibition	Noguchi	100%
O=C(O)COc1ccc(CC(NC(=O)c2ccc3c(c2)nc(-c2ccoc2)n3C2CCCCC2)C(F)(F)F)cc1	RNA-dependent RNA polymerase			Poliovirus	target	IC50		>25 µM
Brc1ccc(C2=Cc3cc(Br)ccc3OC2)cc1			HEP-2	Poliovirus	culture	EC50	IB (TYPE 2)	>10 µM
CCCCCCCCCCCCCCCCCC(=O)OC[C@@H](COP(=O)(O)OCCNCCO[C@@]1(C(=O)O)O[C@@H]([C@H](O)[C@H](O)CO)[C@H](NC(C)=O)[C@@H](O)[C@H]1F)OC(=O)CCCCCCCCCCCCCCCCC	Sialidase			Influenza A virus	target	IC50	H11N3 A/DUCK/HK/44/76	175 µM
CCCCCCCCCCCCCCCCCC(=O)OC[C@@H](COP(=O)(O)OCCNCCO[C@@]1(C(=O)O)O[C@@H]([C@H](O)[C@H](O)CO)[C@H](NC(C)=O)[C@@H](O)[C@H]1F)OC(=O)CCCCCCCCCCCCCCCCC	Sialidase			Influenza A virus	target	IC50	H7N2 A/DUCK/47/5/76	200 µM
CCOC(=O)CCNC(=O)N1CCC(CNC(=O)c2ccc3c(c2)nc(-c2ccoc2)n3C2CCCCC2)CC1	RNA-dependent RNA polymerase			Poliovirus	target	IC50		>25 µM
Clc1ccc(C2COc3ccccc3C2)cc1		10 µM	HEP-2	Poliovirus	culture	inhibition	TYPE 2	0%
O=C(N[C@@H](Cc1c[nH]c2ccc(O)cc12)C(=O)O)c1ccc2c(c1)nc(-c1cccc(OCCO)c1)n2C1CCCCC1	RNA-dependent RNA polymerase			Poliovirus	target	IC50		>25 µM
CC(C)(C)C(=O)OCOP(=O)(COCCn1cnc2c(N)ncnc21)OCOC(=O)C(C)(C)C			LLC-MK2	Variola virus	culture	EC50	Isolate Bangladesh	>100 µg/mL
Clc1ccc2c(c1)CC(c1ccccc1)CO2		10 µM	HEP-2	Poliovirus	culture	inhibition	TYPE 2	30%

Repeating the first 2 entries:

| structure | protein | dose | cells | species | test | endpoint | strain | value |
|---|---|---|---|---|---|---|---|---|
| O=C(Nc1ccc(C[C@H](NC(=O)c2ccc3c(c2)nc(-c2ccoc2)n3C2CCCCC2)C(=O)O)cc1)c1ccccc1 | RNA-dependent RNA polymerase |  |  | Poliovirus | target | IC50 |  | >25 µM |
| N=c1c2ncn([C@@H]3O[C@H](CO)[C@@H](O)[C@H]3O)c2ncn1OCc1cc(F)cc(F)c1 |  |  | LLC-MK2 | Monkeypox virus | culture | EC50 |  | >100 µg/mL |